Library screen at single concentrations

From ChEMBL document CHEMBL3988442, “University of Dundee, Small-Polar-MMV Screening Library” (2021).

Results are given as percent effect. The controls that fix the scale are not given in the record; negative values are as filed. This is part of a subset picked to be rich in strong results. A dash means the value is not listed here; it may have been measured.

Mtb glucose medium: 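Phenotypic screen: M. tuberculosis growth, glucose 7H9 medium, 3 days; the read-out is not stated. Compounds at 500 µM. Higher reads as more growth inhibition (inferred: compounds with an IC50 in retests scored well above the rest). Size under these conditions: about 18,000 compounds, about 1,400 of them at 50% or above in at least one test.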
Mtb cholesterol medium: 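Phenotypic screen: M. tuberculosis growth, cholesterol and DPPC medium, 4 days; the read-out is not stated. Tested at 500 µM. Direction is inferred from retests: higher values go with more growth inhibition. About 18,000 compounds were tested under these conditions; 5% (about 900) showed 50% or more at least once.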

SMILES	Mtb glucose medium	Mtb cholesterol medium
CNC(=O)NCc1cccnc1OC1CCCC1	-	-28.02
CC(C)NC(=O)Cn1nnc(-c2cccs2)n1	4.799	6.858
CCOC(=O)CN(C)S(=O)(=O)NCc1cnn(C)c1	-	16.67
COc1cccc(CNCCNc2cccc(C)n2)c1	70.64	78.11
CCC[C@H]1CN(C(=O)CN2CCCC2=O)C[C@@H]1N	2.253	-
CC(C)N1CCCC(N2CCNCC2)C1=O (stereo not shown)	-	-7.77
Cc1nc(NC(=O)c2ccnn2C)sc1C	32.92	-
O=C(NCc1ccc(Br)o1)[C@@H]1CCCO1	62.05	-
Cc1ccc(F)cc1C(=O)N[C@@H]1CCNC[C@H]1O	-	4.954
CCN(C(=O)CSC(F)(F)F)C1CCS(=O)(=O)C1 (stereo not shown)	-4.405	-
CC(C)NC1CCN(C(=O)Nc2ccncc2)CC1	-	0.748
NCc1cn2c(n1)CCCC2	12.97	-
CCOC(=O)C(C)Cn1cc(Br)cn1 (stereo not shown)	10.69	-
CCN(CCn1cccn1)C(=O)[C@H](N)c1ccccc1	14.38	-
CN(C)Cc1cccc(CNc2ncccc2C#N)c1	-	32.86
CNCC1CCN(C(=O)c2cc(Br)c[nH]2)C1 (stereo not shown)	45.74	42.08
Cc1cccc(N2CCCC(N)C2)n1 (stereo not shown)	89.36	81.39
CCO[C@H]1CN(C)C[C@@H]1NC(=O)c1ccc(O)c(C)c1	0.979	-
CCCNC(=O)c1cc(Br)c[nH]1	52.28	-
CCc1nc(CNC)cs1	61	78.36
Cc1cc(C(=O)NCC(=O)Nc2ccccc2Br)on1	35.28	-
CNCCN1CCN(C(=O)OC(C)(C)C)CC1	-	-8.112
Cc1cncc(C(=O)NCCc2cncn2C)c1	-	-1.754
CS(=O)(=O)CCNC(=O)NCc1ccc(C#N)cc1F	-	-15.91
CC(N)C(=O)N1CCC(Oc2ccccc2Cl)CC1 (stereo not shown)	74.98	57.68
NCC(O)c1c(F)cccc1F (stereo not shown)	11.24	-
Cc1nn(-c2ccccc2)cc1CN	-	13.39
Cc1nccc(C(C)N)n1 (stereo not shown)	6.857	-
N[C@@H]1CC[C@@H](NC(=O)c2ccc(SCCO)cc2)C1	-	20.04
Fc1cccc2c1CNCCO2	0.9823	-
O=C(c1cc(C2CC2)on1)N1CCN2CCC1CC2	-6.955	-
C[C@@H]1CN(CCCS(=O)(=O)N(C)C)C[C@@]1(O)C1CCC1	-	20.45
FC(F)Oc1cccc(C2CNCCO2)c1 (stereo not shown)	50.16	-
COCCCC(=O)N1CCN(CC(C)O)CC1 (stereo not shown)	4.665	-
CCC1CN(Cc2ccno2)CCS1 (stereo not shown)	-10.63	-
C1CC(OCCN2CCOCC2)CN1 (stereo not shown)	5.242	-
CC(C)Cn1nnnc1SC(C)C#N (stereo not shown)	5.388	-
CCCOc1cccc(C(=O)N(C)CC(N)=O)c1	-	12.17
Cc1noc(C)c1C(=O)NC1CCCN(S(C)(=O)=O)C1 (stereo not shown)	-	-1.271
CCNC(=O)N1CCC(=O)N(CC)C2(CCOCC2)C1	-	-6.118
CCn1cnc2ccc(C(=O)NC3CC3)cc2c1=O	9.49	-
CN(C)C(=O)c1cccc(N)n1	-4.982	-
Cc1nnc(SC[C@H](O)COCc2ccccc2)s1	71.97	70.86
Cc1ccncc1NC(=O)Nc1cnccc1C	-3.507	-13.73
OCC(O)CNc1cc(C(F)(F)F)nc2ccccc12 (stereo not shown)	31.59	-
CCC(c1ccc(OC)cc1)N(C)CCO (stereo not shown)	-	7.224
CN(C)CC(=O)Nc1cccc(S(N)(=O)=O)c1	-	-23.44
CCCC(=O)N(C)CCC(N)C(C)C (stereo not shown)	-	1.35
CN(C)C(CNC(=O)CN1CCCC1=O)c1cccs1 (stereo not shown)	37.23	-
Cc1ccccc1CC(=O)OCCC(N)=O	13.46	-
CCN(CCO)c1ncnc2onc(C)c12	-	-3.497
CC(N)(CO)c1ccc(Br)cc1 (stereo not shown)	19.74	15.92
Cn1nc(CC#N)c2ccccc21	-	-0.177
Cc1ccc(C)c(NC(=O)C(C)N2CCC(O)CC2)c1 (stereo not shown)	4.327	-3.928
CCN(CC)CCNC(=O)Nc1nnc2ccccn12	-	4.726
CC(=O)N1CCC(NS(=O)(=O)c2ccc(C)s2)CC1	-	3.514
CC(N)c1nc(-c2ccc3c(c2)OCO3)c[nH]1 (stereo not shown)	58.2	-5.069
Cc1cc(C(=O)NCCOc2ncccc2Cl)[nH]n1	41.31	25.67
CCS(=O)(=O)Nc1ccc(CN)cc1	-	4.759

For reference, 3 entries once more:

Result for CCOC(=O)CN(C)S(=O)(=O)NCc1cnn(C)c1 was Mtb cholesterol medium: 16.67%.
Result for Cc1nnc(SC[C@H](O)COCc2ccccc2)s1 was Mtb glucose medium: 71.97%; Mtb cholesterol medium: 70.86%.
Result for CNC(=O)NCc1cccnc1OC1CCCC1 was Mtb cholesterol medium: -28.02%.